Source: PMC8907557

What was measured:
histone H4 = histone H4 (UniProt P62805); assay: SPR; settings: domain or fragment
histone H3 = histone H3 (UniProt P68431); assay: SPR; settings: domain or fragment

## SARS-CoV-2 spike protein ectodomain (S1 and S2) (from UniProt P0DTC2 14-1213)
Histone H4
  Kd: 220 nM
Histone H3
  Kd: 440 nM
